Data: paper PMC9104152, “Phosphoproteomics Unravel HBV Triggered Rewiring of Host Phosphosignaling Events” (International Journal of Molecular Sciences, 2022)

B1: P83436 1xPhospho [S506(100)] (protein, UniProt P83436 1-770, looked up)
Conserved oligomeric Golgi …: MDFSKFLADDFDVKEWINAAFRAGSKEAASGKADGHAATLVMKLQLFIQEVNHAVEETSHQALQNMPKVLRDVEALKQEASFLKEQMILVKEDIKKFEQDTSQSMQVLVEIDQVKSRMQLAAESLQEADKWSTLSADIEETFKTQDIAVISAKLTGMQNSLMMLVDTPDYSEKCVHLEALKNRLEALASPQIVAAFTSQAVDQSKVFVKVFTEIDRMPQLLAYYYKCHKVQLLAAWQELCQSDLSLDRQLTGLYDALLGAWHTQIQWATQVFQKPHEVVMVLLIQTLGALMPSLPSCLSNGVERAGPEQELTRLLEFYDATAHFAKGLEMALLPHLHEHNLVKVTELVDAVYDPYKPYQLKYGDMEESNLLIQMSAVPLEHGEVIDCVQELSHSVNKLFGLASAAVDRCVRFTNGLGTCGLLSALKSLFAKYVSDFTSTLQSIRKKCKLDHIPPNSLFQEDWTAFQNSIRIIATCGELLRHCGDFEQQLANRILSTAGKYLSDSCSPRSLAGFQESILTDKKNSAKNPWQEYNYLQKDNPAEYASLMEILYTLKEKGSSNHNLLAAPRAALTRLNQQAHQLAFDSVFLRIKQQLLLISKMDSWNTAGIGETLTDELPAFSLTPLEYISNIGQYIMSLPLNLEPFVTQEDSALELALHAGKLPFPPEQGDELPELDNMADNWLGSIARATMQTYCDAILQIPELSPHSAKQLATDIDYLINVMDALGLQPSRTLQHIVTLLKTRPEDYRQVSKGLPRRLATTVATMRSVNY
modifications: phospho S506
B2: Q9UEY8 1xPhospho [S677(100)] (protein, UniProt Q9UEY8 2-706, looked up)
Gamma-adducin: SSDASQGVITTPPPPSMPHKERYFDRINENDPEYIRERNMSPDLRQDFNMMEQRKRVTQILQSPAFREDLECLIQEQMKKGHNPTGLLALQQIADYIMANSFSGFSSPPLSLGMVTPINDLPGADTSSYVKGEKLTRCKLASLYRLVDLFGWAHLANTYISVRISKEQDHIIIIPRGLSFSEATASNLVKVNIIGEVVDQGSTNLKIDHTGFSPHAAIYSTRPDVKCVIHIHTLATAAVSSMKCGILPISQESLLLGDVAYYDYQGSLEEQEERIQLQKVLGPSCKVLVLRNHGVVALGETLEEAFHYIFNVQLACEIQVQALAGAGGVDNLHVLDFQKYKAFTYTVAASGGGGVNMGSHQKWKVGEIEFEGLMRTLDNLGYRTGYAYRHPLIREKPRHKSDVEIPATVTAFSFEDDTVPLSPLKYMAQRQQREKTRWLNSPNTYMKVNVPEESRNGETSPRTKITWMKAEDSSKVSGGTPIKIEDPNQFVPLNTNPNEVLEKRNKIREQNRYDLKTAGPQSQLLAGIVVDKPPSTMQFEDDDHGPPAPPNPFSHLTEGELEEYKRTIERKQQGLEDAEQELLSDDASSVSQIQSQTQSPQNVPEKLEENHELFSKSFISMEVPVMVVNGKDDMHDVEDELAKRVSRLSTSTTIENIEITIKSPEKIEEVLSPEGSPSKSPSKKKKKFRTPSFLKKNKKKEKVEA
modifications: phosphorylated S677
B3: P14868 1xPhospho [S249(100)] (protein, UniProt P14868 1-501, looked up)
Aspartate--tRNA ligase, …: MPSASASRKSQEKPREIMDAAEDYAKERYGISSMIQSQEKPDRVLVRVRDLTIQKADEVVWVRARVHTSRAKGKQCFLVLRQQQFNVQALVAVGDHASKQMVKFAANINKESIVDVEGVVRKVNQKIGSCTQQDVELHVQKIYVISLAEPRLPLQLDDAVRPEAEGEEEGRATVNQDTRLDNRVIDLRTSTSQAVFRLQSGICHLFRETLINKGFVEIQTPKIISAASEGGANVFTVSYFKNNAYLAQSPQLYKQMCICADFEKVFSIGPVFRAEDSNTHRHLTEFVGLDIEMAFNYHYHEVMEEIADTMVQIFKGLQERFQTEIQTVNKQFPCEPFKFLEPTLRLEYCEALAMLREAGVEMGDEDDLSTPNEKLLGHLVKEKYDTDFYILDKYPLAVRPFYTMPDPRNPKQSNSYDMFMRGEEILSGAQRIHDPQLLTERALHHGIDLEKIKAYIDSFRFGAPPHAGGGIGLERVTMLFLGLHNVRQTSMFPRDPKRLTP
modifications: phospho S249
B4: Q9BTE7 1xPhospho [S9(100)] (protein, UniProt Q9BTE7 1-237, looked up)
DCN1-like protein 5: MPVKKKRKSPGVAAAVAEDGGLKKCKISSYCRSQPPARLISGEEHFSSKKCLAWFYEYAGPDEVVGPEGMEKFCEDIGVEPENIIMLVLAWKLEAESMGFFTKEEWLKGMTSLQCDCTEKLQNKFDFLRSQLNDISSFKNIYRYAFDFARDKDQRSLDIDTAKSMLALLLGRTWPLFSVFYQYLEQSKYRVMNKDQWYNVLEFSRTVHADLSNYDEDGAWPVLLDEFVEWQKVRQTS
modifications: phosphorylated S9
B5: P35659 1xPhospho [S32(100)] (protein, UniProt P35659 2-375, looked up)
Protein DEK: SASAPAAEGEGTPTQPASEKEPEMPGPREESEEEEDEDDEEEEEEEKEKSLIVEGKREKKKVERLTMQVSSLQREPFTIAQGKGQKLCEIERIHFFLSKKKTDELRNLHKLLYNRPGTVSSLKKNVGQFSGFPFEKGSVQYKKKEEMLKKFRNAMLKSICEVLDLERSGVNSELVKRILNFLMHPKPSGKPLPKSKKTCSKGSKKERNSSGMARKAKRTKCPEILSDESSSDEDEKKNKEESSDDEDKESEEEPPKKTAKREKPKQKATSKSKKSVKSANVKKADSSTTKKNQNSSKKESESEDSSDDEPLIKKLKKPPTDEELKETIKKLLASANLEEVTMKQICKKVYENYPTYDLTERKDFIKTTVKELIS
modifications: phosphorylated S32
B6: P35659 2xPhospho [S306(100); S307(100)] (protein, UniProt P35659 2-375, looked up)
Protein DEK: B5 Protein DEK
modifications: phosphorylated S306, S307
B7: P35659 3xPhospho [S306(99.6); S307(99.6); S] (protein, UniProt P35659 2-375, looked up)
Protein DEK: B5 Protein DEK
modifications: triply phosphorylated incl. S306, S307
B8: P35659 2xPhospho [S] (protein, UniProt P35659 2-375, looked up)
Protein DEK: B5 Protein DEK
modifications: diphosphorylated
B9: Q9Y2H0 1xPhospho [T915(100)] (protein, UniProt Q9Y2H0 1-992, looked up)
Disks large-associated …: MKGLGDSRPRHLSDSLDPPHEPLFAGTDRNPYLLSPTEAFAREARFPGQNTLPGDGLFPLNNQLPPPSSTFPRIHYNSHFEVPEESPFPSHAQATKINRLPANLLDQFEKQLPIHRDGFSTLQFPRGEAKARGESPGRIRHLVHSVQRLFFTKAPSLEGTAGKVGGNGSKKGGMEDGKGRRAKSKERAKAGEPKRRSRSNISGWWSSDDNLDGEAGAFRSSGPASGLMTLGRQAERSQPRYFMHAYNTISGHMLKTTKNNTTELTAPPPPPAPPATCPSLGVGTDTNYVKRGSWSTLTLSHAHEVCQKTSATLDKSLLKSKSCHQGLAYHYLQVPGGGGEWSTTLLSPRETDAAAEGPIPCRRMRSGSYIKAMGDEDSDESGGSPKPSPKTAARRQSYLRATQQSLGEQSNPRRSLDRLDSVDMLLPSKCPSWEEDYTPVSDSLNDSSCISQIFGQASLIPQLFGHEQQVREAELSDQYEAACESACSEAESTAAETLDLPLPSYFRSRSHSYLRAIQAGCSQEEDSVSLQSLSPPPSTGSLSNSRTLPSSSCLVAYKKTPPPVPPRTTSKPFISVTVQSSTESAQDTYLDSQDHKSEVTSQSGLSNSSDSLDSSTRPPSVTRGGVAPAPEAPEPPPKHAALKSEQGTLTSSESHPEAAPKRKLSSIGIQVDCIQPVPKEEPSPATKFQSIGVQVEDDWRSSVPSHSMSSRRDTDSDTQDANDSSCKSSERSLPDCTPHPNSISIDAGPRQAPKIAQIKRNLSYGDNSDPALEASSLPPPDPWLETSSSSPAEPAQPGACRRDGYWFLKLLQAETERLEGWCCQMDKETKENNLSEEVLGKVLSAVGSAQLLMSQKFQQFRGLCEQNLNPDANPRPTAQDLAGFWDLLQLSIEDISMKFDELYHLKANSWQLVETPEKRKEEKKPPPPVPKKPAKSKPAVSRDKASDASDKQRQEARKRLLAAKRAASVRQNSATESADSIEIYVPEAQTRL
modifications: phosphorylated T915
B10: P25686 1xPhospho [S/Y/T] (protein, UniProt P25686 2-321, looked up)
DnaJ homolog subfamily B …: ASYYEILDVPRSASADDIKKAYRRKALQWHPDKNPDNKEFAEKKFKEVAEAYEVLSDKHKREIYDRYGREGLTGTGTGPSRAEAGSGGPGFTFTFRSPEEVFREFFGSGDPFAELFDDLGPFSELQNRGSRHSGPFFTFSSSFPGHSDFSSSSFSFSPGAGAFRSVSTSTTFVQGRRITTRRIMENGQERVEVEEDGQLKSVTINGVPDDLALGLELSRREQQPSVTSRSGGTQVQQTPASCPLDSDLSEDEDLQLAMAYSLSEMEAAGKKPAGGREAQHRRQGRPKAQHQDPGLGGTQEGARGEATKRSPSPEEKASRC
modifications: phosphorylated
B11: Q99543 1xPhospho [S47(99.8)] (protein, UniProt Q99543 1-621, looked up)
DnaJ homolog subfamily C …: MLLLPSAADGRGTAITHALTSASTLCQVEPVGRWFEAFVKRRNRNASASFQELEDKKELSEESEDEELQLEEFPMLKTLDPKDWKNQDHYAVLGLGHVRYKATQRQIKAAHKAMVLKHHPDKRKAAGEPIKEGDNDYFTCITKAYEMLSDPVKRRAFNSVDPTFDNSVPSKSEAKDNFFEVFTPVFERNSRWSNKKNVPKLGDMNSSFEDVDIFYSFWYNFDSWREFSYLDEEEKEKAECRDERRWIEKQNRATRAQRKKEEMNRIRTLVDNAYSCDPRIKKFKEEEKAKKEAEKKAKAEAKRKEQEAKEKQRQAELEAARLAKEKEEEEVRQQALLAKKEKDIQKKAIKKERQKLRNSCKTWNHFSDNEAERVKMMEEVEKLCDRLELASLQCLNETLTSCTKEVGKAALEKQIEEINEQIRKEKEEAEARMRQASKNTEKSTGGGGNGSKNWSEDDLQLLIKAVNLFPAGTNSRWEVIANYMNIHSSSGVKRTAKDVIGKAKSLQKLDPHQKDDINKKAFDKFKKEHGVVPQADNATPSERFEGPYTDFTPWTTEEQKLLEQALKTYPVNTPERWEKIAEAVPGRTKKDCMKRYKELVEMVKAKKAAQEQVLNASRAKK
modifications: phosphorylated S47
B12: Q99543 1xPhospho [S] (protein, UniProt Q99543 1-621, looked up)
DnaJ homolog subfamily C …: B11 DnaJ homolog subfamily C …
modifications: monophosphorylated
B13: Q99956 1xPhospho [S16(100)] (protein, UniProt Q99956 1-384, looked up)
Dual specificity protein …: MEGLGRSCLWLRRELSPPRPRLLLLDCRSRELYESARIGGALSVALPALLLRRLRRGSLSVRALLPGPPLQPPPPAPVLLYDQGGGRRRRGEAEAEAEEWEAESVLGTLLQKLREEGYLAYYLQGGFSRFQAECPHLCETSLAGRAGSSMAPVPGPVPVVGLGSLCLGSDCSDAESEADRDSMSCGLDSEGATPPPVGLRASFPVQILPNLYLGSARDSANLESLAKLGIRYILNVTPNLPNFFEKNGDFHYKQIPISDHWSQNLSRFFPEAIEFIDEALSQNCGVLVHCLAGVSRSVTVTVAYLMQKLHLSLNDAYDLVKRKKSNISPNFNFMGQLLDFERSLRLEERHSQEQGSGGQASAASNPPSFFTTPTSDGAFELAPT
modifications: phosphorylated S16

Test system: HepG2-NTCP cells
Test: TMT-based phosphoproteome profiling of HBV-infected vs mock HepG2-NTCP (HBV/mock ratio)
Design: species or system human
Conditions: phosphosite abundance ratio of host protein, HBV-infected vs mock HepG2-NTCP, 7dpi, sheet Up-regulated

Molecule	HBV/mock
B1	1.517
B2	1.388
B3	1.466
B4	1.693
B5	2.028
B6	4.651
B7	4.308
B8	6.454
B9	1.326
B10	1.3534
B11	1.384
B12	1.894
B13	1.337
